# Key:
# X. fastidiosa = details: cited from earlier work
# [1] = test system: Xylella fastidiosa subsp. pauca, strain De Donno; details: 12 μM
# Xylella fastidiosa cells [2] = format: cell-based
# [3] = test system: Xanthomonas albilineans (Xa), strain CFBP2523; format: cell-based; design: key: +++: Clear plaque formation; ++: turbid plaque formation; +: highly turbid plaque formation; -: no plaque formation
# Xylella fastidiosa cells [4] = format: cell-based; remark: listed apart in the source
# Xylella fastidiosa cells [5] = format: cell-based; remark: listed apart in the source
# [6] = test system: Xylella fastidiosa subsp. pauca isolate De Donno in Nicotiana tabacum (var. Xanthi); details: in vivo
compound,measurement,setting,value
"CC[C@H](C)[C@H](NC(=O)CNC(=O)[C@H](C)NC(=O)[C@@H]1CCCN1C(=O)CNC(=O)[C@H](C)NC(=O)[C@H](CC(C)C)NC(=O)[C@H](Cc1ccc(O)cc1)NC(=O)[C@H](CCCCN)NC(=O)[C@H](CC(C)C)NC(=O)[C@@H](NC(=O)[C@H](CCCCN)NC(=O)[C@H](CCCCN)NC(=O)[C@H](Cc1ccccc1)NC(=O)[C@H](CC(C)C)NC(=O)[C@H](CCCCN)NC(=O)[C@@H](N)CCCCN)[C@@H](C)CC)C(=O)NCC(=O)N[C@@H](CCCCN)C(=O)N[C@@H](Cc1ccccc1)C(=O)N[C@@H](CC(C)C)C(=O)N[C@@H](Cc1c[nH]cn1)C(=O)N[C@@H](CO)C(=O)N[C@@H](C)C(=O)N[C@@H](CCCCN)C(=O)N[C@@H](CCCCN)C(=O)N[C@@H](CC(=O)O)C(=O)N[C@@H](CCC(=O)O)C(=O)N[C@@H](CC(C)C)C(=O)O [KL29, BP178, reference compound]",MIC (μM) X. fastidiosa,X. fastidiosa,12.5 µM
same,inhibition / clearing zone on Xf (printed 'mean growth zones'),[1],11.8 mm
same,reduction in Xf cell viability (v-qPCR),Xylella fastidiosa cells [2],twofold reduction in cell viability
same,growth inhibition of Xanthomonas albilineans (plaque formation),[3],+++
same,morphological changes of Xf cells under TEM,Xylella fastidiosa cells [4],pore and protrusion formation and condensed cytoplasmic outflow from the outer membrane
same,lytic activity by fluorescence microscopy (live green / dead red),Xylella fastidiosa cells [5],highest lytic activities
same,Xf disease symptoms in Xf-infected tobacco plants,[6],light leaf scorch symptoms

# From publication PMC9687439 (Biology, 2022)
